Results of unrelated studies side by side (data: NIAID ChemDB).

Inhibition is in % at the dose shown (toxicity tests: loss of growth or viability). An empty or dashed field is not shown. ICn: concentration for n% inhibition. A number after MIC or MFC names an inhibition level or a share of isolates. Rows are shuffled and stem from different studies. ECn: concentration that inhibits the pathogen or its effect by n%.

smiles	target	cell line	strain	read by	organism	tested at	measure	test	result
Fc1ccc(N2CCCCC2)c(NC(=S)c2ccncc2)c1	MAP2K6			kinase activity		10 µM	inhibition	host protein	5.6%
O=S(=O)([O-])c1ccc(O)c2ccccc12		Human amnion AV3 cells		cytopathic effect	Rhinovirus	5 µg/mL	inhibition	culture	10%
CCOc1ccc(-c2cncc(N3CCN(c4ccc(F)cc4)CC3)n2)cc1	UL97 kinase				Cytomegalovirus		IC50	target	<100 µM
NCCS(=O)(=O)O		Human embryonic lung cells	TYPE 3	cytopathic effect	Adenovirus	50 µg/mL	inhibition	culture	0%
CCOC(=O)c1ccc(OCCC2CCN(c3ccc(C)nn3)CC2)cc1		KB	47-CV21 (ICAM-1 receptor group 21)	neutral red	Rhinovirus		EC50	culture	0.271 µM
Nc1c(S(=O)(=O)[O-])cc2cc(S(=O)(=O)[O-])ccc2c1O		Human amnion AV3 cells	TYPE 3	cytopathic effect	Adenovirus	10 µg/mL	inhibition	culture	0%
C=CCc1ccc(OC)c(OC)c1			2858	turbidity	Candida tropicalis		MIC90	culture	345 µg/mL
Oc1ccc(-c2cncc(Nc3cccc(C(F)(F)F)c3)n2)cc1	UL97 kinase				Cytomegalovirus		IC50	target	<1 µM
Cc1cc(CCCOc2c(C)cc(-c3noc(C(F)(F)F)n3)cc2C)on1		OHIO HELA-I	Isolate 23	cytopathic effect / visual reading	Rhinovirus		EC50	culture	<0.01 µg/mL
CN(C)c1ccc(-c2cncc(N3CCN(c4ccccc4F)CC3)n2)cc1	UL97 kinase				Cytomegalovirus		IC50	target	<10 µM
O=S(=O)([O-])c1ccc2c(S(=O)(=O)[O-])cc(S(=O)(=O)[O-])cc2c1		Human amnion AV3 cells		cytopathic effect	Herpes simplex virus	50 µg/mL	inhibition	culture	20%
CN(C)c1ccc(-c2cncc(N3CCN(c4ccc(F)cc4F)CC3)n2)cc1	UL97 kinase				Cytomegalovirus		IC50	target	<10 µM
Cc1ccc(C(=O)Nc2ccc(S(=O)(=O)O)c3cc(S(=O)(=O)O)cc(S(=O)(=O)O)c23)cc1NC(=O)c1cccc(NC(=O)Nc2cccc(C(=O)Nc3cc(C(=O)Nc4ccc(S(=O)(=O)O)c5cc(S(=O)(=O)O)cc(S(=O)(=O)O)c45)ccc3C)c2)c1		Human embryonic lung cells	TYPE 3	cytopathic effect	Adenovirus	5 µg/mL	inhibition	culture	0%
c1ccc2c(-c3cncc(N4CCN(c5ccncc5)CC4)n3)csc2c1	UL97 kinase				Cytomegalovirus	1 µM	inhibition	target	<50%
CC(=O)N[C@H]1[C@H]([C@H](O)[C@H](O)CO)OC(C(=O)O)=C[C@@H]1N=C(N)N		MDCK	Influenza A/Beijing/32/92 (H3N2)	visual reading	Influenza A virus		EC50	culture	0.3 µM

The first 2 rows once more:

smiles,target,cell line,strain,read by,organism,tested at,measure,test,result
Fc1ccc(N2CCCCC2)c(NC(=S)c2ccncc2)c1,MAP2K6,,,kinase activity,,10 µM,inhibition,host protein,5.6%
O=S(=O)([O-])c1ccc(O)c2ccccc12,,Human amnion AV3 cells,,cytopathic effect,Rhinovirus,5 µg/mL,inhibition,culture,10%